The values that follow come from publication doi:10.1101/2020.09.15.275891v2 (biorxiv, 2020).

The assay concerns the target SARSCoV2 M^pro-His6 (Severe acute respiratory syndrome coronavirus 2, UniProt P0DTD1). The assay is described as follows: biochemical.

The term IC50 denotes the concentration at which inhibition is half-maximal. Lower therefore signals greater potency. Take `CCCC[C@H](NC(=O)[C@@H]1[C@@H]2[C@H](CN1C(=O)[C@@H](NC(=O)NC1(CS(=O)(=O)C(C)(C)C)CCCCC1)C(C)(C)C)C2(C)C)C(=O)C(=O)NC1CC1` [narlaprevir]: the IC50 was greater than 20 µM.
